Experimental data as given in patent US10335503B2, “Compound that specifically binds to AMPA receptor” (Public University Corporation Yokohama City University, priority 2015, dated 2019).

Protein sequences, listed by entry. Tags and fused reporters are not part of them.
UniProt Q00975, whole entry: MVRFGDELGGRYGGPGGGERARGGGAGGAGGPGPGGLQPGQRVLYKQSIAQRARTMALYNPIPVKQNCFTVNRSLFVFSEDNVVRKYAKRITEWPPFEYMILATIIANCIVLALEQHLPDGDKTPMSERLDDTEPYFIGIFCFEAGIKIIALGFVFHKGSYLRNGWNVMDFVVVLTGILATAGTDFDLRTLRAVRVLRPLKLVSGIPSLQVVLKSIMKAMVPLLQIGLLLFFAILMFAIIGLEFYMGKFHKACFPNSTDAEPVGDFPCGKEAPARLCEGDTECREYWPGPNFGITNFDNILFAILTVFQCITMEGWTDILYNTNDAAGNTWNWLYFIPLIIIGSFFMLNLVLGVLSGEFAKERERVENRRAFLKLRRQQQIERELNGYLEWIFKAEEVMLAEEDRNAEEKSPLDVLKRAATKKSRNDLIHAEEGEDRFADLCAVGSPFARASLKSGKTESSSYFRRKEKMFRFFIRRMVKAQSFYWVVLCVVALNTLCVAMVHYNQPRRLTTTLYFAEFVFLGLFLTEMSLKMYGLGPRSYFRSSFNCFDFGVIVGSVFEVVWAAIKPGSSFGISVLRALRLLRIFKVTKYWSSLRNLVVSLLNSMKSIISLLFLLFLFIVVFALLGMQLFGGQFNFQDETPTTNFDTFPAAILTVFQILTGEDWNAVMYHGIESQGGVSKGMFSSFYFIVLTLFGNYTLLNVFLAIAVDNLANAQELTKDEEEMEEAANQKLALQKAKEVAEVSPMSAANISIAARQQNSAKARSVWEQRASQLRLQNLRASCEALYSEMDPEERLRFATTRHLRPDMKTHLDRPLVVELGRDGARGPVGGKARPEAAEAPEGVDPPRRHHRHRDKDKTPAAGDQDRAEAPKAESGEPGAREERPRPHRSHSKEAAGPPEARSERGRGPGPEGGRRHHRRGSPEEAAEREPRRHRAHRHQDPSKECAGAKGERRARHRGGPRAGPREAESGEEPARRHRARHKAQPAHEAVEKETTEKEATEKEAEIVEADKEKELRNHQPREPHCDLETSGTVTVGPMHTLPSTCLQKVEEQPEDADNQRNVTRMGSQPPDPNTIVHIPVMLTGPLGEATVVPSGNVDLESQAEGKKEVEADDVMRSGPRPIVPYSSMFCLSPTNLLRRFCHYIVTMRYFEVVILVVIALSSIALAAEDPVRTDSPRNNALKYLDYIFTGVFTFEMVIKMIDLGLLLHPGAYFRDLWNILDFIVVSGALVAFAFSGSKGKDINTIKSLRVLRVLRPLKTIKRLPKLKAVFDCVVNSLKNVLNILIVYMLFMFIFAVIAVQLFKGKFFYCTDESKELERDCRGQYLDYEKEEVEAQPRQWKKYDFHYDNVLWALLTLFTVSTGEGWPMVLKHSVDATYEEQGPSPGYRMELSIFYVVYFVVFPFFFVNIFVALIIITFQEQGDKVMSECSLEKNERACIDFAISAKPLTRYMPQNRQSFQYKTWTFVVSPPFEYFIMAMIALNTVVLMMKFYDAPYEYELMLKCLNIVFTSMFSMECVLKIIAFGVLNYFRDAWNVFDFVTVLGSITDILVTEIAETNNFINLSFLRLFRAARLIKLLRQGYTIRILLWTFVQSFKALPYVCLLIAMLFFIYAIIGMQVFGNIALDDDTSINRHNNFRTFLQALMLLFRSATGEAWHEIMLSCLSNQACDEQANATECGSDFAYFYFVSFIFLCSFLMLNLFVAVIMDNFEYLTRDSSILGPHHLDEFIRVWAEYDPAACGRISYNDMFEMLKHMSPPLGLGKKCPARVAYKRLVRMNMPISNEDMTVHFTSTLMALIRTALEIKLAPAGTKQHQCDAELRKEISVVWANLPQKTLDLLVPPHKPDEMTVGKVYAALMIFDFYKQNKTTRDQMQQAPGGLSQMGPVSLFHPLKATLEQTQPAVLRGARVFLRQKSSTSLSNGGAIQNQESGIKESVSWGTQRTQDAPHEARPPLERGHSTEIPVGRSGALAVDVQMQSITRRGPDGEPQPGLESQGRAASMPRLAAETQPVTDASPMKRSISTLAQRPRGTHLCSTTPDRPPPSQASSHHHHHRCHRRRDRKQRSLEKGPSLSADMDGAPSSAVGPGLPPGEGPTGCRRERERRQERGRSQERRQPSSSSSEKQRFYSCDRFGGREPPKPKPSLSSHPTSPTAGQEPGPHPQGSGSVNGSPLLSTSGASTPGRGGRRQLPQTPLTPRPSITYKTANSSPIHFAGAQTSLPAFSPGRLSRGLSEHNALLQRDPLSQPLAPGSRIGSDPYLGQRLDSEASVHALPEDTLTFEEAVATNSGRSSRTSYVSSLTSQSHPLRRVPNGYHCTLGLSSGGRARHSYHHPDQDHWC

Target: Ca channel (Type N) (Homo sapiens, UniProt Q00975)
Test: Receptor binding panel: Ca channel (Type N)

## ω-Conotoxin GVIA [reference compound]
  Inhibition (%): 99.35%
